This assay has as its system CD8F1 mice, subcutaneous mammary adenocarcinoma, T/C%. Description: NCI In Vivo Anticancer Drug Screen. Data for tumor model Mammary Adenocarcinoma CD8F1 (subcutaneous) in CD8F1. The conditions noted are these: endpoint: median tumor weight change, schedule: Q01DX001 (ip), vehicle: saline, higher = larger tumour. Here is the method: The antitumor activity of compounds was measured in mice bearing transplantable tumors. Survival or tumor size were measured and the results are expressed as the measurement made in the treated group (T) divided by the measurement made in the vehicle treated control group (C). The tumor model used in this assay is Mammary Adenocarcinoma CD8F1 (subcutaneous) in CD8F1

Results filed as inconclusive are left out.

On to `O=P1(N(CCCl)CCCl)NC(SCCS(=O)(=O)O)CCO1` (centres undefined), for which the T/C was 100 % of control (dose: 62.5 mg/kg/injection), 71 % of control (dose: 125.0 mg/kg/injection), 28 % of control (dose: 250.0 mg/kg/injection) and -78 % of control (dose: 500.0 mg/kg/injection).

The values above are taken from PubChem BioAssay AID220 (DTP/NCI, 2004).
